Test system: Sprague-Dawley rat
Conditions: in vivo

For [C-]#[O+] [CO, Carbon monoxide], the “60 minute exposure LD50” value was 3123 ppm.
